Data as given in PubChem BioAssay AID504761 (Drosophila RNAi Screening Center, 2011).
Test: 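Insect host genes that dengue virus relies on to spread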 (primary screen). Cell system: D.Mel-2 cells from Drosophila. Reagents: long dsRNA against Drosophila genes. Treatment: infection with dengue virus type 2; dose and infection time not stated. Measured: 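Cells stained for dengue envelope protein and imaged; percent of infected cells per well on duplicate plates, ranked by infection, with stained nuclei counted for cell number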. Scale: infection score: higher = more virus-infected cells; cell count: higher = more cells in the well. Hit rule: 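Low infection ranks in the two replicates (chance level up to 0.065) followed by a retest with a 1.5-fold or larger significant decrease, p below 0.05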. Meaning of the calls: active = confirmed: knock-down lowers infection; inactive = not picked or not confirmed.
In all, the deposit lists about 22,000 reagents; below is a random part of those with a known target gene and a result. Over the whole deposit, 116 (0.52%) are marked active. 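Calls depend on retest data that are not deposited; infection was ranked per plate without normalising between plates; the unit of the infection score is not given.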 Raw values are not corrected between plates. Entries without a mark were called inactive. The record does not give: the amount of reagent, the time to read-out.

| target gene | DRSC id | infection score, replicate 1 | infection score, replicate 2 | cell count, replicate 1 | cell count, replicate 2 |
| --- | --- | --- | --- | --- | --- |
| Cad74A | DRSC10636 | 2.39 | 16.6 | 6515 | 6439 |
| CG14230 | DRSC19586 | 2.95 | 2.34 | 5906 | 6145 |
| CG14230 | DRSC29188 | 13 | 19.8 | 5988 | 5532 |
| CG4239 | DRSC19885 | 9.66 | 1.63 | 6477 | 6695 |
| CG4955 | DRSC19927 | 10.9 | 3.93 | 6083 | 6542 |
| Obp19b | DRSC20536 | 6.11 | 4.44 | 4939 | 6329 |
| Obp19b | DRSC28944 | 2.38 | – | 1091 | 439 |
| CG18327 | DRSC06722 | 3.78 | 2.67 | 6834 | 6738 |
| CG18327 | DRSC24393 | 2.64 | 3.44 | 6591 | 6771 |
| CG33124 | DRSC00298 | 2.53 | 4.5 | 6518 | 6533 |
| CG3589 | DRSC04392 | 7.59 | 21.1 | 6008 | 6205 |
| CG3589 | DRSC26755 | 1.95 | 6.95 | 6255 | 6160 |
| Sema1b | DRSC07550 | 19 | 6.76 | 6200 | 1080 |
| Sema1b | DRSC27552 | 23.7 | 19.8 | 5935 | 6393 |
| Paics | DRSC20305 | 3.23 | 3.08 | 6972 | 6829 |
| Meics | DRSC11413 | 1.2 | 6.24 | 6609 | 6474 |
| Meics | DRSC29541 | 15.3 | 12.2 | 5692 | 2819 |
| CG13002 | DRSC19521 | 5.82 | 1.89 | 5391 | 6255 |
| CG13002 | DRSC29478 | 20 | 19 | 3085 | 4553 |
| Alg7 | DRSC02833 | 3.67 | 15.2 | 6618 | 5774 |
| Alg7 | DRSC02834 | 14.3 | 27.4 | 6008 | 3961 |
| shd | DRSC11129 | 0.68 | 1.12 | 6038 | 6520 |
| CG11854 | DRSC14409 | 6.08 | 8.46 | 6485 | 2174 |
| CG4465 | DRSC15584 | 7.54 | 0.63 | 6482 | 6011 |
| CG14223 | DRSC19580 | 6.88 | 1.86 | 5658 | 6576 |
| CG14223 | DRSC24816 | 4.33 | 5.78 | 6473 | 6069 |
| Flo1 | DRSC07427 | 16.5 | 45 | 5052 | 5472 |
| Flo1 | DRSC28122 | 20.4 | 5 | 4802 | 1441 |
| CG12983 | DRSC11692 | 6.19 | 4.48 | 6676 | 6402 |
| CG32448 | DRSC22657 | 6.88 | 2.92 | 6627 | 6443 |
| CG15465 | DRSC18048 | 5.8 | 11.7 | 6206 | 6077 |
| CG15465 | DRSC26250 | 4.46 | 3.68 | 5873 | 6107 |
| y | DRSC18853 | 6.84 | 4.8 | 6715 | 6871 |
| CG42537 | DRSC12519 | 7.49 | 6.07 | 7139 | 6982 |
| Sema2b | DRSC05609 | 1.05 | 1.28 | 6211 | 6105 |
| Sema2b | DRSC06867 | 27.9 | 13.2 | 5283 | 6025 |
| Sema2b | DRSC24672 | 4.07 | 2.48 | 6480 | 6205 |
| dlg1 | DRSC18896 | 4.5 | 1.87 | 6071 | 6519 |
| dlg1 | DRSC19767 | 1.78 | 1.73 | 6591 | 6662 |
| dlg1 | DRSC20324 | 1.44 | 5.66 | 6385 | 6021 |
| dlg1 | DRSC29546 | – | 8.46 | 305 | 6123 |
